# Data: patent publication US10987357B2, “Aerosolized fluoroquinolones and uses thereof” (Horizon Orphan, LLC, priority 2005, dated 2021)
# Assay: Oral taste test (20 uL on the tongue)
# Type: in vivo, human
# Details: for Oral taste, Initial Solution / Oral taste, Final Solution: 20 uL; for Oral taste, Initial Solution: 10 mg/mL, single volunteer; for Oral taste, Final Solution: after pH adjustment
SMILES,"Oral taste, Initial Solution","Oral taste, Final Solution","oral taste testing (in vivo, po)"
N[C@@H]1[C@H]2CN(c3nc4c(cc3F)c(=O)c(C(=O)O)cn4-c3ccc(F)cc3F)C[C@@H]12 [Trovafloxacin],very strong bitter,,
CCn1cc(C(=O)O)c(=O)c2cc(F)c(N3CCN(C)CC3)cc21 [Pefloxacin],strong bitter unpleasant,,
NC1CCN(c2nc3c(cc2F)c(=O)c(C(=O)O)cn3-c2ccc(F)cc2F)C1 (stereo not drawn) [Tosufloxacin],mild to moderate,strong almond-like,
CN1CCN(c2c(F)cc3c(=O)c(C(=O)O)cn4c3c2OCN4C)CC1 [Marbofloxacin],bitter unpleasant,moderate to strong,
CCn1cc(C(=O)O)c(=O)c2cc(F)c(N3CCNC(C)C3)c(F)c21 (stereo not drawn) [Lomefloxacin],moderate to strong,,moderately strong almond-like taste
C[C@@H]1CN(c2c(F)c(N)c3c(=O)c(C(=O)O)cn(C4CC4)c3c2F)C[C@H](C)N1 [Sparfloxacin],slight taste,strong almond-like,
CO/N=C1\CN(c2nc3c(cc2F)c(=O)c(C(=O)O)cn3C2CC2)CC1CN (stereo not drawn) [Gemifloxacin],very bitter unpleasant taste,,
C[C@@H]1CN(c2c(F)c(F)c3c(=O)c(C(=O)O)cn(C4CC4)c3c2F)C[C@H](C)N1 [Orbifloxacin],strong unpleasant taste,"very strong, very",
COc1c(N2CCNC(C)C2)c(F)cc2c(=O)c(C(=O)O)cn(C3CC3)c12 (stereo not drawn) [Gatifloxacin],moderate bitter unpleasant,strong bitter,
